The supplement of paper PMC9931576
Human monoclonal antibodies against the spike receptor-binding domain (heavy:light variable regions). IC50 against pseudoviruses bearing the spike of naturally observed variants; lower = stronger; >10 µg/ml means not reached at the top dose. No active / inactive call. The stated detection limit is 0.0005 µg/ml; values near or below 0.001 µg/ml lie at the floor of the assay.

B1: BD55-6202 (protein)
chain 1: QVQLVESGGGVVQPGRSLRLSCAASGFTFSTYGMHWVRQAPGKGLEWVALIWNDGSKTYYADSVKGRLTISRDNSKNTVYLQMNSLRAEDTAVYYCARDSQCSGGNCYFDYNWFDAWGQGTLVTVSS
chain 2: EIVLTQSPATLSLSPGERATLSCRASQSVSRHLAWYQQKPGQAPRLLIYDASNRATGIPARFSGSGSGTDFTLTISSLEPEDFAVYYCQQRYTWPPAYTFGQGTKLQIK
B2: BD55-1192 (protein)
chain 1: QVQLVESGGGVVQPGRSLRLSCAASGFTPILYAMHWVRQAPGKGLEWVALISFDGINRYYADSVKGRFTISRDSSKNTLYLLMNSLRAEDTAVYYCAKDRRGGNVITPPYGMDVWGQGTTVTVSS
chain 2: DIVMTQTPLSLSVTPGQPASISCKSSQSLLHIDGKTYLSWYLQKPGQSPHLLIYDGVNRFSGVPDKFSGSGSGTDFTLKISRVEAEDVGFYYCMQSIQLPLTFGGGTKVEIK
B3: BD55-6213 (protein)
chain 1: QVQLQQWGAGLLKPSETLSLTCAVSGGSFSGYYWSWIRQSPGKGLEWIGEINHSGSTNYNPSLKTRVTISVDRSKNQFSLELSSVTAADTAVYFCARVGRGYSGYDYYYYYFMDVWGKGNTVTVSS
chain 2: DNQMTQSPSSLSASVGDRVTITCRASQNLTRNLNWYQQKTGEAPKLLIYAASSLQSGVPSRFSGSGSGTDFTLTISSLQPEDFATYYCQQSYSPNTFGQGTKLEI
B4: BD55-1179 (protein)
chain 1: QVHLQESGPRLVRPSQTLSLTCTVSGGSVSSNGHYWTWMRQHPGKGLEWIGNIYYSGSTHYNPSLKSRVTISVDTSKDEFSLKVTSMTVADTAVYFCARELVATGQFHYWGQGILVSVSS
chain 2: DIQMTQSPSSLSVSVGDRVTITCQASQDITNHLNWYQQKAGKAPNLLIYDASDLETGVPSRFSGRGSGTEFTFTISSLQPEDIATYYCQQFDNLPYTFGQGTKLEMK
B5: BD55-6205 (protein)
chain 1: DVQLVESGGGLVQPGGSLRLSCAASGFTFSSYALHWVRQAPGKGLEYVSSITRDGVGTFYADSLKGRFTISRDNSKNTVYLQMGSLRADDMAVYYCAREARDQIDVVLDFWGQGTPVTVSS
chain 2: DIQMTQSPSSLSASVGDRVTITCRASQTISRYLNWYQHKPGKVPKLLIYAASRLQSGVPSRFSGSGSGTDFTLTISSLQPEDFATYYCQQSYTSPEYTFGQGTKLEIK
B6: BD55-6240 (protein)
chain 1: QVQLQESGPGLVKPSQTLSLTCTVSGGSISSRSYDWSWLRQPAGKGLEWIGRIYGSGGSNHNPSLKSRVTISVDTSKNQFSLKLSSVTAADTAVYYCARHSGYDPEFDYWGQGTLVTVSS
chain 2: DIQMTQSPSTLSASVGDRVTITCRASQSISRWLAWYQQKPGKAPKLLIYKASILESGVPSRFSGSGSGTDFTLTISSLQPDDFATYYCQQYNSYSTFGPGTKVDMK
B7: BD55-6216 (protein)
chain 1: QEQLVQSGAEVRKPGASVKVSCKASGYAFINYEINWVRQSTGQGLEWLGRMNPSSGSTDYAHKFQGRVFMTSDTSVNTAYMELTSLRSEDTAVYYCARESTGGYYYYYDMDVWGQGTTVIVSS
chain 2: DIQMTQSPSALSASVGDRVTITCRASQSISTSVNWYQQKPGKAPKFLIYDGSTLQSGVPSRFSGSGSGTEFTLTISSLQPEDFATYFCQQSYSFPPTFGPGTKVDIK
B8: BD55-6206 (protein)
chain 1: QLQLQESGPGLVKPSETLSLTCTVSGGSISSSSYYWGWIRQPPGKGLEWIGSIYYSGSTYYNPSLKSRVTISVDTSKNQFSLKLSSVTAADTAVYSCARHLGGDREERLASPWYDYYTGGHFDLWGRGTLVTVSS
chain 2: QSVLTQPPSVSGAPGQRVTISCTGSSSNIGAGYDVHWYQQLPGTAPKLLIYGNSNRPSGVPDRLSGSKSGTSASLAITGLQAEDEADYYCQSYDSSLSGWVFGGGTKLTVL
B9: BD55-6227 (protein)
chain 1: QVQLVQSGAEVRKPGASVKVSCKASGYSFTNYAMSWVRQAPGQGLEWMGWIISNNGDTDYAPKLQDRVTMTTDTSTSTGYMELTSLRSDDTAVYYCVRAAGHYYDGFYFDLWGRGTLVTVSS
chain 2: SYELTQPPSVSVSPGQTARITCSADPLPRQYSYWYQQKPGQAPVLVIYKDTQRPSGVPERFSASTSGTKVTLTISGVQAEDEADYYCQSADSSGAVFGGGTKLVVL
B10: BD55-6236 (protein)
chain 1: QVQLQESGPGLVRPSETLSLTCTVSGGSINSDHYYWGWIRQSPGKGLEWIGSIFYSGTTYYNPSLDSRVTLSLDTSKNHFSLKLTSVTAADSAVYYCARDTGPLVYCGGDCLLVPNFYFGMDVWGQGTTVTVSS
chain 2: YVLTQPPSVSVAPGKTARLSCGGSNIGTRSVHWYQQKPGQAPVLVVYDDSHRPSGIPERFSGSNSGNTATLTISRVEAGDEADYYCQVWESMSGRPNWVFGGGTKVTVL
B11: BD55-6204 (protein)
chain 1: QITLKESGPTLVKPTQTLTLTCTFSGFSLTTSGVGVGWIRQPPGKALEWLALIYGDDDKRYSPSLKSRLTITKDTSKNQVVLIMTNMDPVDTATYYCAHRPAGGYDVLTGYYRVVVPLFDYWGQGTLVTVSS
chain 2: QSVLTQPPSASGIPGQRVTISCSGSSSNIGGNPVDWYQQLPGTAPKLLNYNDNQRPLGVPDRFSGSKSGTSASLAISGLQSEDEAEYYCAAWDDSLNGPVFGGGTKLTVL
B12: BD55-6211 (protein)
chain 1: QVQLVQSGAEVKKPGASVKVSCKASEYSFSTYDINWVRQATGQGLEWMGWMNPTSGDAGYAHKFQGRVILTRETSIRTAYMELSSLTSEDTAVYYCATGPRAMIGFDNWLDPWGQGTLVTVSS
chain 2: DIQMTQSPSSLSASVGDRVTITCRASQSISSYLNWYRQIPGKAPKLLIYAASTLQRGVPSSFSGSGSGTDFTLTINNLQPEDFAIYYCQQSYSTPYTFGQGTKLEIK

molecular target: SARS-CoV-2 Omicron BA.1 spike pseudovirus; assay: pseudovirus neutralization IC50; higher = weaker neutralization
Experimental: (§1)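 Single-round VSV luciferase pseudovirus mixed with antibody dilutions for 1 h and put on Huh-7 cells for about a day; IC50 from the dose curve.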

Binder | pseudovirus neutralization IC50
B1 | > 10 µg/mL
B2 | 0.543 µg/mL
B3 | 4.52 µg/mL
B4 | > 10 µg/mL
B5 | > 10 µg/mL
B6 | > 10 µg/mL
B7 | > 10 µg/mL
B8 | 0.299 µg/mL
B9 | > 10 µg/mL
B10 | > 10 µg/mL
B11 | > 10 µg/mL
B12 | > 10 µg/mL

molecular target: SARS-CoV-2 Omicron BA.2 spike pseudovirus; assay: as above
Experimental: as §1

Binder | pseudovirus neutralization IC50
B1 | > 10 µg/mL
B2 | 0.216 µg/mL
B3 | 4.77 µg/mL
B4 | > 10 µg/mL
B5 | > 10 µg/mL
B6 | > 10 µg/mL
B7 | > 10 µg/mL
B8 | > 10 µg/mL
B9 | > 10 µg/mL
B10 | > 10 µg/mL
B11 | > 10 µg/mL
B12 | > 10 µg/mL

molecular target: SARS-CoV-2 Omicron BA.2.75 spike pseudovirus; assay: as above
Experimental: as §1

Binder | pseudovirus neutralization IC50
B1 | > 10 µg/mL
B2 | > 10 µg/mL
B3 | 5.13 µg/mL
B4 | > 10 µg/mL
B5 | > 10 µg/mL
B6 | > 10 µg/mL
B7 | > 10 µg/mL
B8 | > 10 µg/mL
B9 | > 10 µg/mL
B10 | > 10 µg/mL
B11 | > 10 µg/mL
B12 | > 10 µg/mL

molecular target: SARS-CoV-2 Omicron BA.5 spike pseudovirus; assay: as above
Experimental: as §1

Binder | pseudovirus neutralization IC50
B1 | > 10 µg/mL
B2 | 4.1 µg/mL
B3 | 2.42 µg/mL
B4 | > 10 µg/mL
B5 | > 10 µg/mL
B6 | > 10 µg/mL
B7 | > 10 µg/mL
B8 | > 10 µg/mL
B9 | > 10 µg/mL
B10 | > 10 µg/mL
B11 | > 10 µg/mL
B12 | > 10 µg/mL

molecular target: SARS-CoV-2 Omicron BQ.1.1 spike pseudovirus; assay: as above
Experimental: as §1

Binder | pseudovirus neutralization IC50
B1 | > 10 µg/mL
B2 | 5.12 µg/mL
B3 | > 10 µg/mL
B4 | > 10 µg/mL
B5 | > 10 µg/mL
B6 | > 10 µg/mL
B7 | > 10 µg/mL
B8 | > 10 µg/mL
B9 | > 10 µg/mL
B10 | > 10 µg/mL
B11 | > 10 µg/mL
B12 | > 10 µg/mL

molecular target: SARS-CoV-2 Omicron XBB spike pseudovirus; assay: as above
Experimental: as §1

Binder | pseudovirus neutralization IC50
B1 | > 10 µg/mL
B2 | > 10 µg/mL
B3 | > 10 µg/mL
B4 | > 10 µg/mL
B5 | > 10 µg/mL
B6 | > 10 µg/mL
B7 | > 10 µg/mL
B8 | > 10 µg/mL
B9 | > 10 µg/mL
B10 | > 10 µg/mL
B11 | > 10 µg/mL
B12 | > 10 µg/mL

molecular target: SARS-CoV-2 early D614G spike pseudovirus; assay: as above
Experimental: as §1

Binder | pseudovirus neutralization IC50
B1 | > 10 µg/mL
B2 | 0.693 µg/mL
B3 | 2.06 µg/mL
B4 | > 10 µg/mL
B5 | > 10 µg/mL
B6 | > 10 µg/mL
B7 | > 10 µg/mL
B8 | 0.0154 µg/mL
B9 | > 10 µg/mL
B10 | > 10 µg/mL
B11 | > 10 µg/mL
B12 | 5.87 µg/mL
